Results of unrelated studies side by side (data: NIAID ChemDB).

All rows: growth or infection tests; organism: HIV-1; cells: TZM-bl; read-out: inhibition

Lines come from different laboratories, so protocols vary. An empty or dashed field is not shown. Inhibition is in % at the dose shown (toxicity tests: loss of growth or viability).

smiles	strain or isolate	read by	dose	result
CC(C)c1cnc(C2C=C(c3ccccc3[N+](=O)[O-])N=C(N)S2)cn1	NL4-3	p24 / ELISA / antigen	10 µg/mL	83%
O=C(Cc1ccc([N+](=O)[O-])cc1)Nc1nc(-c2ccccc2)cs1	NL4-3	-	50 µg/mL	65.22%
Cn1[nH]c(C(F)(F)F)c(C(=O)NCc2ccc(F)cc2)c(=O)c1=O	-	MTT	10 µM	-3.5%
O=C(Cc1ccccc1[N+](=O)[O-])Nc1nc(-c2ccccc2)cs1	NL4-3	-	50 µg/mL	58.18%
c1cc(CNCCCNC2CCCCC2)cc(CNc2nc(N3CCNCC3)nc3nc[nH]c23)c1	IIIB	luciferase	10 µM	0%
O=C(NCc1ccc(F)cc1)c1c(C(F)(F)F)[nH]n(C/C=C/c2ccccc2)c(=O)c1=O	-	MTT	10 µM	-27.2%
CC(C)c1cnc(C2C=C(c3ccc(F)cc3)N=C(N)S2)cn1	NL4-3	p24 / ELISA / antigen	10 µg/mL	80%
COc1c(C(=O)NCc2ccc(C)cc2)ccc2c1C(=O)N(C)C(c1ccco1)N2	-	MTT	10 µM	8.1%
O=C(Cc1ccccc1Cl)Nc1nc(-c2ccccc2)cs1	NL4-3	-	50 µg/mL	68.43%
COc1c(C(=O)NCc2ccc(C)cc2)ccc2c1C(=O)N(C)C(c1ccccn1)N2	-	MTT	10 µM	9.9%
O=C(NCc1ccc(F)cc1)c1c(C(F)(F)F)[nH]n(CC2CCCO2)c(=O)c1=O	-	MTT	10 µM	-3.02%
CC(C)c1cnc(C2C=C(c3cccc(F)c3)N=C(N)S2)cn1	NL4-3	p24 / ELISA / antigen	10 µg/mL	74%
N=C1Sc2ccccc2C2=NCCCN12	92HT599	β-galactosidase	5.9 µM	90%
CC(C)C[C@H](NC(=O)c1ccc(NC(=O)[C@@H](N)Cc2c[nH]c3ccccc23)c(OCCc2c[nH]c3ccccc23)c1)C(=O)O	NL4-3	luciferase / cell fusion	50 µM	2%
Cc1cccc(C2=CC(c3cnc(C(C)C)cn3)SC(N)=N2)c1	NL4-3	p24 / ELISA / antigen	10 µg/mL	25%
COc1ccccc1CC(=O)Nc1nc(-c2ccccc2)cs1	NL4-3	-	50 µg/mL	89.63%
CC(C)c1cnc(C2C=C(c3ccccc3Cl)N=C(N)S2)cn1	NL4-3	p24 / ELISA / antigen	10 µg/mL	68%
O=C(Cc1ccccc1)Nc1nc(-c2ccccc2)cs1	NL4-3	-	50 µg/mL	41.32%
COc1c(C(=O)NCc2ccc(C)cc2)ccc2c1C(=O)N(C)C(c1cccs1)N2	-	MTT	10 µM	17.5%

A second listing of 2 rows from above:

Cc1cccc(C2=CC(c3cnc(C(C)C)cn3)SC(N)=N2)c1 ; strain or isolate: NL4-3 ; read by: p24 / ELISA / antigen ; dose: 10 µg/mL ; result: 25%
c1cc(CNCCCNC2CCCCC2)cc(CNc2nc(N3CCNCC3)nc3nc[nH]c23)c1 ; strain or isolate: IIIB ; read by: luciferase ; dose: 10 µM ; result: 0%